## Screening data, single-dose tests

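Phenotypic screen: M. tuberculosis growth, glucose 7H9 medium, 3 days; the read-out is not stated. Concentration: 50 µM. Direction is inferred from retests: higher values go with more growth inhibition. Size under these conditions: about 69,000 compounds, about 760 of them at 50% or above in at least one test.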

Each number is a percent effect as filed.
The record does not define 0% and 100%; most values in the screen are far below 50% and negative numbers occur (in some assays of this library far below -100).
This is part of a subset picked to be rich in strong results.
Two or more numbers in one place are separate tests of the same structure; such repeats can differ widely.

For O=C(CCc1ccc(Br)cc1)NCc1nnc[nH]1 the result was -4.847% & 5.551%.
For O=C(Nc1cn[nH]c1)c1ccncc1 the result was 10.68%.
For O=C(Nc1ccccn1)NC(CCCO)c1ccccc1 (centres unmarked) the result was -13.7%.
For CC(=O)NCCCNCc1ccc(Cl)c2cccnc12 the result was 25.15%.
For CCn1cncc1Cn1ncc2ccccc2c1=O the result was 27.38% & -2.759%.
For Cn1c(-c2ccccc2Cl)nc2cc(C(=O)NC(CO)CO)cnc21 the result was 2.172% & 65.01%.
For CC(CCn1cccn1)Nc1ccc(-c2nccn2C)nn1 (centres unmarked) the result was 8.212%.
For Cn1cc(C(C)(O)CNc2ccc(Cl)c(C#N)n2)cn1 (centres unmarked) the result was -2.163%.
For O=C(Nc1cnn(COc2ccc(F)cc2Cl)c1)C1CC1 the result was 24.23%.
For CCN(C)C(=O)Nc1cc(F)c(OC)cc1F the result was -52.14%.
For COc1ccccc1OC1CN(C(=O)Cc2c(C)nc3ccccn23)C1 the result was 7.919%.
For O=C(NC1CCCN(CCCc2ccccc2)C1)C1=CCCCC1 (centres unmarked) the result was 30.89%.
For CC(O)CNc1nc(-c2cccnc2)nc2c1CCC2 (centres unmarked) the result was -13.39%.
For CS(=O)(=O)c1ccc2c(c1)N(C(=O)Cc1ccc(F)cc1)CCC2 the result was -27.48%.
For Cc1nn(C)c2c(NCc3ccncc3)nc(C3CC3)nc12 the result was -6.761%.
For Cc1cnc(N2CCN(C)c3ncccc3C2)nc1.O=C(O)C(F)(F)F the result was -3.726% & -32.17%.
For COCCNC(=O)Nc1cccc(COCCOC(C)C)c1 the result was -0.4188% & 10.95%.
For O=C(CCC(=O)N1CCc2[nH]c3ccccc3c2C1)NCc1ccco1 the result was -1.36% & -0.4311%.
For O=S(=O)(CCN1CCCC1Cn1cccn1)c1ccccc1 (centres unmarked) the result was -3.724%.
For CCc1cc(=O)[nH]c(-c2ccc(NC(C)CN3CCOCC3)nc2)n1 (centres unmarked) the result was 12.09%.
For CN1CCOC[C@H]1c1nc(-c2ccncc2)c[nH]1 the result was 8.876% & 5.056%.
For COc1c(F)cc(-c2cccc3c2OC(CN)C3)cc1F (centres unmarked) the result was 44.48% & 48.66%.
For CC(C)Cn1cncc1CNC(=O)c1cccc(CC2CCNCC2)c1 the result was -27.8% & -2.961%.
For Cc1cccc(C(=O)NCc2ccnc(N(C)C)c2)n1 the result was -3.217%.
For CN1CCN(C(=O)C2CCCN(c3cccnn3)C2)CC1 (centres unmarked) the result was 58.83%.
For CCC1(CO)CCCN(C(=O)c2ccc(N3CCN(C)CC3)cc2)C1 (centres unmarked) the result was 19.2%.
For Cc1nc(CC(=O)NCc2csc(N3CCCC3)n2)cs1 the result was 22.28%.
For CCC(CO)NCc1ccc(-c2ccc(F)cc2)o1.Cl (centres unmarked) the result was 6.878% & 12%.
For Cc1nsc(NCCNS(=O)(=O)c2ccccc2)n1 the result was 0.8589% & 14.24%.
For OCc1ccc(CN(CCCn2ccnc2)Cc2ccncc2)o1 the result was 6.664%.
For CCc1noc(CNc2cc3c(cc2Cl)OCCO3)n1 the result was 29.13% & 63.6%.
For Cn1c(CCNC(=O)Nc2cn[nH]c2)nc2ccc(F)cc21 the result was -5.378% & 1.467%.
For COc1cccc(C2CC(=O)Nc3nc(N4CCCCC4)sc32)c1OC (centres unmarked) the result was 50.93%.
For CCCN1Cc2ccccc2NC(=O)C12CCNC2 (centres unmarked) the result was 22.11%.
For COCC(C)NS(=O)(=O)c1ccc(Br)cn1 (centres unmarked) the result was -9.793%.
For O=C1N(Cc2ccc(F)c(F)c2)CCCC1(O)CNCC1CCCCC1 (centres unmarked) the result was 17.97%.
For Cc1c(C(=O)NCCC(=O)N2CCOCC2)sc2ccc(F)cc12 the result was 6.806%.
For COc1cc(-c2cccc3c2OC(CN)C3)cc(OC)c1OC (centres unmarked) the result was 53.73% & 45.51%.
For CCN(C(=O)C1Cc2cc(Cl)ccc2O1)C1CC1 (centres unmarked) the result was -26.12% & -0.3512%.
For CC(Cn1cc(Br)cn1)C(=O)Nc1ccc(Cl)cn1 (centres unmarked) the result was 56.17%.
For CCCOCCNc1nc2c(s1)c(C)nn2C the result was -3.24% & 1.09%.
For Cc1n[nH]cc1C(=O)N1CCCC(c2cccc(-n3ccnc3)n2)C1 (centres unmarked) the result was 32.41%.
For Cc1cc(C)n(CCN2CCN(C(=O)c3ccc(Br)o3)CC2)n1 the result was 4.793% & 13.62%.

The values are deposited in ChEMBL (CHEMBL3988442, “University of Dundee, Small-Polar-MMV Screening Library” (2021)).